Assay: Circular dichroism, secondary structure content (CDPro)
Format: physicochemical
Conditions: peptide 0.25 mg mL^−1, 25 °C
[1] = H2O (20 mM phosphate buffer, pH 7.4)
[2] = SUV (PC:PG 3:1 small unilamellar lipid vesicles)

Row | Substance | Random (%) (30 mM SDS) | α-Helix (%) (30 mM SDS) | β-Sheet (%) (30 mM SDS) | β-Turn (%) (30 mM SDS) | Random (%) [1] [%] | α-Helix (%) [1] [%] | β-Sheet (%) [1] [%] | β-Turn (%) [1] [%] | Random (%) [2] [%] | α-Helix (%) [2] [%] | β-Sheet (%) [2] [%] | β-Turn (%) [2] [%]
1 | H-GAKERAHQ-OH [CGA-N8, NH2–GAKERAHQ–COOH] | 3.45 | 84.89 | 9.87 | 1.79 | 2.13 | 87.79 | 8.56 | 1.34 | 8.11 | 43.76 | 34.27 | 13.86
2 | H-ERILSILRHQNLLKE-OH [CGA-N15, NH2–ERILSILRHQNLLKE–COOH] | 1.52 | 83.41 | 11.25 | 3.82 | 2.77 | 82.69 | 10.89 | 3.65 | 14.04 | 41.53 | 30.47 | 13.96
3 | H-LQDLALQGAKERAHQQ-OH [CGA-N16, NH2–LQDLALQGAKERAHQQ–COOH] | 1.88 | 83.33 | 11.43 | 3.36 | 1.94 | 83.67 | 11.16 | 3.23 | 10.83 | 40.91 | 35.67 | 12.59
4 | H-ALQGAKERAHQQ-OH [CGA-N12, NH2–ALQGAKERAHQQ–COOH] | 1.18 | 87.91 | 9.53 | 1.38 | 1.44 | 88.36 | 8.64 | 1.56 | 9.31 | 43.21 | 32.09 | 15.39

Source: paper PMC4982898, “Molecular Design, Structural Analysis and Antifungal Activity of Derivatives of Peptide CGA-N46” (Interdisciplinary Sciences, Computational Life Sciences, 2016)
